Construct, isoform or probe ends are uncertain for at least one entry. A weaker result is weaker than the reference pair of the same experiment. Protein sequences can lack the tags named with them.
Target: T1, CaPif1 (Candida albicans) (UniProt Q59RQ0)
T1 sequence (looked up, limits assumed): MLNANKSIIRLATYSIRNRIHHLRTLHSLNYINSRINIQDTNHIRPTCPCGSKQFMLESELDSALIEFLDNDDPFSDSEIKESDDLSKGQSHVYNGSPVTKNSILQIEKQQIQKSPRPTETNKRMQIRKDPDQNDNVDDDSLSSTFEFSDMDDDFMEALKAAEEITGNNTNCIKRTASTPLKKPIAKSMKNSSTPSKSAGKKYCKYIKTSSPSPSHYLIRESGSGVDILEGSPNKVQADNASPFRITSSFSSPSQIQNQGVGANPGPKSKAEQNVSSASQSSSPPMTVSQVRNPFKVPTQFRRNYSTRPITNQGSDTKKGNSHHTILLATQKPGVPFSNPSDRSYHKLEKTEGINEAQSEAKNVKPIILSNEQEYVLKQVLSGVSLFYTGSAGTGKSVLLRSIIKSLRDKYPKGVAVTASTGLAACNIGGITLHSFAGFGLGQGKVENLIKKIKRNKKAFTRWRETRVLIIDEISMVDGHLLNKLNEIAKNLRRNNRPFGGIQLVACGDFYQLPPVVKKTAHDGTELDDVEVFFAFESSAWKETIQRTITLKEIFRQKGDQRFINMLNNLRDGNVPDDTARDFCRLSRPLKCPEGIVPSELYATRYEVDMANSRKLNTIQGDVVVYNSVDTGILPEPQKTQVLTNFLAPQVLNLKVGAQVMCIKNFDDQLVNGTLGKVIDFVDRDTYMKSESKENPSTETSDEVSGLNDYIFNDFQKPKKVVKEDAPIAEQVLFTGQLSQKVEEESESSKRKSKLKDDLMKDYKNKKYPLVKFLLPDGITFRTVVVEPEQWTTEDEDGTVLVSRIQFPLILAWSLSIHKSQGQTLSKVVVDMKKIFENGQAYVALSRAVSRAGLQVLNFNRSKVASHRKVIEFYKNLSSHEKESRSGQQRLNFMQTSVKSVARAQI
Experiment: EMSA
Details: 1.5 mM Mg2+, no ATP, CaPif1 0-3000 nM; 25 mM Tris-HCl pH 7.5, 50 mM NaCl, 1.5 mM MgCl2, 1 mM DTT, 25 C; EMSA 10 nM DNA, 5 min, 6% native PAGE; recombinant protein; label: 3'-FAM on strand 1

“TATCGAAGAATGTTATGTCATTCCGGCAGATG (double strand) [DS32]”: binds more weakly.
